# Patent publication US7964624B1, “Inhibitors of serine proteases” (priority 2005, dated 2011)
# Sequences of proteins named here, by UniProt entry; tags and fusion partners are left off. A change or cut given only in a name is not applied to a line headed by its entry. A line that says so, or that is headed by a name, gives the form on record, which may keep a tag or linker. Residues count along the entry.
# UniProt P27958, 1658-1711 partner limits assumed: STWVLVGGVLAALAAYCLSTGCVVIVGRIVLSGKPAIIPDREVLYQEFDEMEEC
# UniProt P27958, 1027-1711 with tags or gaps with the stated changes: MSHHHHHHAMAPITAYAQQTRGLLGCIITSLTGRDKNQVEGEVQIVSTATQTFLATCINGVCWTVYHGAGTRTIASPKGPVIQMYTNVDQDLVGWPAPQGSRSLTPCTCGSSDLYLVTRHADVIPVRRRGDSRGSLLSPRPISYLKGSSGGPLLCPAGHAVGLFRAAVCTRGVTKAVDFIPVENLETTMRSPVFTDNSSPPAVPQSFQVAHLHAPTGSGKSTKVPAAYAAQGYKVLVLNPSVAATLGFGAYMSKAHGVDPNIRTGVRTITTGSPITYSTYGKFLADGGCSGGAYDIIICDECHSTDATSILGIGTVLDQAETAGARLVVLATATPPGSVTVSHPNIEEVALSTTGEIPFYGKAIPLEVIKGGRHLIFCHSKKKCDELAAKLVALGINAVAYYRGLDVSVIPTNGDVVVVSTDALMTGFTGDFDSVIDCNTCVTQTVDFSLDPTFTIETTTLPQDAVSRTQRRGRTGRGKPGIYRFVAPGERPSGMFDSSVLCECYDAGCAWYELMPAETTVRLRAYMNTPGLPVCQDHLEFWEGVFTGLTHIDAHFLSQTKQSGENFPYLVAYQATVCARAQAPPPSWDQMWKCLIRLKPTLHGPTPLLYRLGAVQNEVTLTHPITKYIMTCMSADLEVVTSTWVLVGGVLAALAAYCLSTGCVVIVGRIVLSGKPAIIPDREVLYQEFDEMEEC
# UniProt Q9WMX2, 1027-1207 limits assumed: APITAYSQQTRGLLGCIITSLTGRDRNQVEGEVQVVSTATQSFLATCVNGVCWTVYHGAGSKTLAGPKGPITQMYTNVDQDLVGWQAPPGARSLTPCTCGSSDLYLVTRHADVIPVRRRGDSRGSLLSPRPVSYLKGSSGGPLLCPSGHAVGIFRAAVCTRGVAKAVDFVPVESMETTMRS
# pKi: −log10 of the molar value.
# What was measured:
# [1] = target: full-length hepatitis C viral protein NS3•4A (Hepatitis C virus genotype 1a, UniProt P27958); test: HCV NS3 Peptide Cleavage Assay (Enzyme Assay 2), apparent Ki; settings: read-out: Enzyme Assay 2 (HCV NS3 Peptide Cleavage Assay) activity; apparent Ki class
# HCV NS3 protease domain = HCV NS3 protease domain (Hepatitis C virus genotype 1b, UniProt Q9WMX2); test: HCV NS3 Protease Domain Peptide Cleavage Assay (Enzyme Assay 1), apparent Ki; settings: read-out: Enzyme Assay 1 (HCV NS3 Protease Domain Peptide Cleavage Assay) activity; apparent Ki class
# From the text: A DNA fragment encoding residues Ala^1-Ser^181 of the HCV NS3 protease (GenBank CAB46913) was obtained by PCR from the HCV Con1 replicon plasmid, I377neo/NS3-3′/wt (re-named as pBR322-HCV-Neo in this study) [V. Lohmann et al., Science, 285, pp. 110-113 (1999)] and inserted into pBEV11 (S. Chamber, et al., personal communication) for expression of the HCV proteins with a C-terminal hexa-histidine tag in E. coli. All constructs were confirmed by sequencing.
# The expression constructs for the HCV NS3 serine protease domain was transformed into BL21/DE3 pLysS E. coli cells (Stratagene). Freshly transformed cells were grown at 37° C. in a BHI medium (Difco Laboratories) pplemented with 100 μg/mL carbenicillin and 35 μg/mL chloramphenicol to an optical density of 0.75 at 600 nm. Induction with 1 mM IPTG was performed for four hours at 24° C. The cell paste was harvested by centrifugation and flash frozen at −80° C. prior to protein purification. All purification steps were performed at 4° C. Next, 100 g of cell paste was lysed in 1.5 L of buffer A (50 mM HEPES (pH 8.0), 300 mM NaCl, 0.1% n-octyl-β-D-glucopyranoside, 5 mM β-mercaptoethanol, 10% (v/v) glycerol) and stirred for 30 minutes. The lysate was homogenized using a Microfluidizer (Microfluidics, Newton, Mass.), followed by ultra-centrifugation at 54,000×g for 45 minutes. Imidazole was added to the supernatant to a final concentration of 5 mM along with 2 mL of Ni-NTA resin pre-equilibrated with buffer A containing 5 mM imidazole. The mixture was rocked for three hours and washed with 20 column volumes of buffer A plus 5 mM imidazole. The HCV NS3 protein was eluted in buffer A containing 300 mM imidazole. The eluate was concentrated and loaded onto a Hi-Load 16/60 Superdex 200 column, pre-equilibrated with buffer A. The appropriate fractions of the purified HCV protein were pooled and stored at −80° C.
# This assay is a modification of that described by Landro, et al. (Landro J A, Raybuck S A, Luong Y C, O'Malley E T, Harbeson S L, Morgenstern K A, Rao G and Livingston D L. Biochemistry 1997, 36, 9340-9348), and uses a peptide substrate (NS5AB), based on the NS5A/NS5B cleavage site for genotype 1a HCV. The substrate stock solution (25 mM) was prepared in DMSO containing 0.2 M DTT and stored at −20° C. A synthetic peptide cofactor (KK4A) was used as a substitute for the central core region of NS4A. The reaction was performed in a 96-well microtiter plate format using 25 ηM to 50 ηM HCV NS3 protease domain in buffer containing 50 mM HEPES pH 7.8, 100 mM NaCl, 20% glycerol, 5 mM DTT and 25 μM KK4A. The final DMSO concentration was no greater than 2% v/v. Reactions were quenched by addition of trifluoroacetic acid (TFA) to yield a final concentration of 2.5%.
# The SMSY product was separated from substrate and KK4A using a microbore separation method. The instrument used was a Agilent 1100 with a G1322A degasser, either a G1312A binary pump or a G1311A quaternary pump, a G1313A autosampler, a G1316A column thermostated chamber and a G1315A diode array detector. The column was a Phenomenex Jupiter, 5 μm C18, 300 Å, 150×2 mm, P/O 00F-4053-B0, with a flow-rate of 0.2 mL/min. […] The SMSY product peak was quantitated using the data collected at […].
# To evaluate apparent Ki values, all components except the test compound and substrate were pre-incubated for 5-10 minutes at room temperature. […] At the end of the reaction the mixture was quenched, and the extent of reaction was determined as described above. […]
SMILES,pKi [1],pKi (HCV NS3 protease domain)
CCC[C@H](NC(=O)[C@@H]1C[C@]2(CC(c3cccc(Cl)c3)=NO2)CN1C(=O)[C@@H](NC(=O)CC1CCCCC1)C(C)(C)C)C(=O)C(=O)N[C@H](C)c1cccc(OC)c1,< 6.30,< 6.30
CCC[C@H](NC(=O)[C@@H]1C[C@]2(CC(c3cccc(Cl)c3)=NO2)CN1C(=O)[C@@H](NC(=O)OCc1c(F)cccc1F)C(C)(C)C)C(=O)C(=O)NC1CC1,,6.30 to 7.00
CC1CC(CC(=O)NC(C(=O)N2CC3(CC(c4cccc(Cl)c4)=NO3)CC2C(=O)NC(CC2CC2)C(=O)C(N)=O)C(C)(C)C)CC(C)O1 (centres unmarked),> 7.00,6.30 to 7.00
CCC[C@H](NC(=O)[C@@H]1C[C@]2(CC(c3ccc4ccccc4c3)=NO2)CN1C(=O)OCC1c2ccccc2-c2ccccc21)C(=O)C(=O)NC1CC1,,< 6.30
CCC[C@H](NC(=O)[C@@H]1C[C@]2(CC(c3cccc(Cl)c3)=NO2)CN1C(=O)[C@@H](NC(=O)[C@@H](Cc1c[nH]nn1)C1CCCCC1)C(C)(C)C)C(=O)C(=O)NC1CC1,> 7.00,6.30 to 7.00
